Measured values from several laboratories, pooled; numbers as filed in NIAID ChemDB.

Shared fields: tests in culture

Conditions beyond the fields shown may differ between rows. Blank or dashed fields: not listed here. Percent inhibition refers to the dose given; in toxicity tests it is the harm to the cells. ECn is the concentration giving n% inhibition of infection, replication or growth. Zones are inhibition diameters on agar. MIC50, MIC90 and the like: level of inhibition, or share of isolates inhibited.

O=c1nc(NO)ccn1[C@@H]1O[C@H](CO)[C@@H](O)[C@H]1O ; agent: Bovine viral diarrhea virus ; cells: MDCK ; read-out: inhibition ; tested at: 5.4 µM ; value: 90%
Nc1nc2c(ccn2[C@@H]2C[C@H](CO)[C@@H](O)[C@H]2O)c(=O)[nH]1 ; agent: Parainfluenza virus ; read-out: MIC ; value: >100 µg/mL
Cc1cc(CCCCCOc2cc(Cl)c(-c3nnc(C)o3)c(Cl)c2)on1 ; agent: Rhinovirus ; strain or isolate: Serotype 14 ; read-out: MIC80 ; value: 0.19 µg/mL
Nc1nc2c(ncn2CCC(CO)CO)c(=O)[nH]1 ; agent: Equine herpesvirus 1 ; strain or isolate: QUAI HAIS ; cells: RK-13 ; read by: plaque count ; read-out: EC50 ; value: 1.6 µg/mL
CC(C)(C)c1ccc(NC(=O)NC(=O)c2ccccc2O)cc1 ; agent: Toxoplasma gondii ; cells: Human foreskin fibroblasts ; read-out: MIC50 ; value: >0.25 µM
CC(C)(O)c1cn(-c2ccc([N+](=O)[O-])cc2)nn1 ; agent: Candida tropicalis ; strain or isolate: URM 1150 ; read by: broth dilution ; read-out: inhibition ; tested at: 2048 µg/mL ; value: 0%
COc1cc(/C=C/C(C)=O)ccc1O ; agent: Aspergillus ochraceus ; read by: agar diffusion ; read-out: zone ; tested at: 200 µg/disc ; value: 30 mm
Cc1nc2ccc(Br)cc2c(=O)n1-c1nnc(-c2cccc(Cl)c2Cl)c(N)n1 ; agent: Punta Toro virus ; cells: E6SM ; read by: cytopathic effect ; read-out: EC50 ; value: >16 µg/mL
O=[N+]([O-])c1ccc(Cn2cnc3c(Nc4cccc(F)c4)nc(C(F)(F)F)nc32)cc1 ; agent: Rhinovirus ; strain or isolate: Serotype 4 ; cells: M-HELA ; read by: plaque count ; read-out: EC50 ; value: >100 µM
Cc1c(NCCCO)c(F)cc2c(=O)c(C(=O)O)cn(-c3cc(N)c(F)cc3F)c12 ; agent: Staphylococcus aureus ; strain or isolate: 27 isolates (methicillin-resistant) ; read-out: MIC50 ; value: 0.015 µg/mL
CC(C)(O)c1cn(-c2ccccc2)nn1 ; agent: Candida parapsilosis ; strain or isolate: URM 4608 ; read by: broth dilution ; read-out: inhibition ; tested at: 2048 µg/mL ; value: 0%
Cc1cc(CCCCCOc2c(C)cc(-c3nnc(C)o3)cc2C)on1 ; agent: Rhinovirus ; strain or isolate: serotype 2 1A 1B 6 14 21 22 15 25 30 50 67 89 86 41 ; read-out: MIC80 ; value: 0.67 µg/mL
CCCCCCCCCCCCCCCCCCCCCCOCC(C)(COCCCCCCCCCCCCCCCCCCCCCC)CO[C@]1(C(=O)O)C[C@H](OS(=O)(=O)O)[C@@H](NC(C)=O)[C@H]([C@H](OS(=O)(=O)O)[C@@H](COS(=O)(=O)O)OS(=O)(=O)O)O1 ; agent: Rotavirus ; strain or isolate: MO (serotype 3) ; cells: MA-104 ; read by: plaque count ; read-out: EC50 ; value: 2.2 µg/mL
CCC(CC)[C@H](NC(C)=O)[C@@H]1[C@H](O)[C@@H](C(=O)O)C[C@H]1N=C(N)N ; agent: Influenza B virus ; strain or isolate: Memphis/3/89 ; cells: MDCK ; read by: plaque count ; read-out: EC50 ; value: 0.0084 µM
CCN=C1NC2C(OC(CO)C(O)C2O)S1 ; agent: Kaposi sarcoma virus ; cells: HEK 293 ; read by: flow cytometry ; read-out: inhibition ; tested at: 0.001 µM ; value: 8%
Nc1nc(N)c2ncn(CCOCP(=O)(O)O)c2n1 ; agent: Varicella zoster virus ; strain or isolate: Oka CF1368-resistant ; cells: HEL ; read by: cytopathic effect ; read-out: EC50 ; value: 3.2 µM
COc1c(CN(C)C)cccc1C1OC(c2ccncc2)=NN1C(C)=Nc1ccc(F)cc1 ; agent: Pseudomonas aeruginosa ; strain or isolate: MTCC 2453 ; read-out: MIC ; value: 6.25 µg/mL
Cc1ccc(C(C)C)cc1O ; agent: Aspergillus fumigatus ; strain or isolate: CECT2071 ; read-out: MLC ; value: 0.32 µg/mL
COc1cc(OC)c(NC(=S)Nc2ccc(NC(=O)c3ccco3)cc2)cc1Cl ; agent: Simian cytomegalovirus ; strain or isolate: Colburn ; cells: HFF ; read-out: EC50 ; value: >20 µM
O=c1[nH]c(=O)n([C@H]2C[C@H](O)[C@@H](CO)O2)cc1I ; agent: Herpes simplex virus 1 ; strain or isolate: SCRUS ; read-out: MIC ; value: 1.1 µg/mL
CC(C)(O)c1cn(-c2ccc3ccccc3c2)nn1 ; agent: Candida parapsilosis ; strain or isolate: URM 4970 ; read by: broth dilution ; read-out: inhibition ; tested at: 2048 µg/mL ; value: 0%
Cc1cc(CCCCCOc2cc(Cl)c(-c3nnco3)c(Cl)c2)on1 ; agent: Rhinovirus ; strain or isolate: Serotype 41 ; read-out: MIC80 ; value: 2.76 µg/mL
NNC(=O)c1ccc(N2CCN(c3ccc(C(=O)NN)cc3)CC2)cc1 ; agent: Pneumocystis carinii ; read by: ATP ; read-out: EC50 ; value: 6.48 µg/mL
Nc1nc2c(ncn2COC(CO)CO)c(=O)[nH]1 ; agent: Varicella zoster virus ; strain or isolate: Oka CF1603-resistant ; cells: HEL ; read by: cytopathic effect ; read-out: EC50 ; value: 9.1 µM
CCCSc1nc(N)nc2c1ncn2/C=C1/C[C@@H]1CO ; agent: Epstein-Barr virus ; cells: Akata ; read by: hybridisation ; read-out: EC50 ; value: 1.8 µM
Cc1ccc(-n2cc(C(C)(C)O)nn2)cc1C ; agent: Candida parapsilosis ; strain or isolate: URM 4970 ; read by: broth dilution ; read-out: inhibition ; tested at: 2048 µg/mL ; value: 0%
CNc1c(F)cc2c(=O)c(C(=O)O)cn(-c3cc(N)c(F)cc3F)c2c1C ; agent: Enterococcus faecium ; strain or isolate: ATCC51519 ; read-out: MIC ; value: 4 µg/mL
COc1cc(OC)c(NC(=S)Nc2ccc(NC(C)=O)cc2)cc1Cl ; agent: Rhesus cytomegalovirus ; cells: HFF ; read-out: EC50 ; value: >20 µM
O=C(NNC(=O)Nc1ccccc1C(F)(F)F)Nc1cc(C(F)(F)F)cc(C(F)(F)F)c1 ; agent: Escherichia coli ; strain or isolate: ES142 ; read-out: MIC ; value: >422 µM
OC[C@H]1O[C@@H](n2c(Br)nc3cc(Cl)c(Cl)cc32)[C@H](O)[C@@H]1O ; agent: Human cytomegalovirus ; strain or isolate: Recombinant C4 (D341E) ; read by: virus yield ; read-out: EC95 ; value: 4.8 µM
C=CCc1ccc(OC)c(OC)c1 ; agent: Candida tropicalis ; strain or isolate: ATCC 750 ; read by: turbidity ; read-out: MIC90 ; value: 345 µg/mL
O=C(Nc1cccc(C2=NCCN2)c1)Nc1cccc(C(F)(F)F)c1 ; agent: Klebsiella pneumoniae ; strain or isolate: KL21 ; read-out: MIC ; value: 106 µM
COc1ccc2cc(C(=O)NC(=O)c3ccccc3O)ccc2c1 ; agent: Toxoplasma gondii ; cells: Human foreskin fibroblasts ; read-out: MIC90 ; value: >0.25 µM
O=C(NNC(=O)Nc1cc(C(F)(F)F)cc(C(F)(F)F)c1)Nc1cccc(C(F)(F)F)c1 ; agent: Escherichia coli ; strain or isolate: ES142 ; read-out: MIC ; value: >300 µM
NC(=NC1CCCCCCC1)c1ccc(N2CCN(c3ccc(C(N)=NC4CCCCCCC4)cc3)CC2)cc1 ; agent: Pneumocystis carinii ; read by: ATP ; read-out: EC50 ; value: 0.195 µg/mL
Nc1nc2c(ncn2CC(CO)CCO)c(=O)[nH]1 ; agent: Simian varicella-zoster virus ; cells: GMK ; read by: plaque count ; read-out: EC50 ; value: 91 µM
CC(=O)N1CCN(c2ccc(OC[C@H]3CO[C@](Cn4ccnc4)(c4ccc(Cl)cc4Cl)O3)cc2)CC1 ; agent: Aspergillus spp. ; strain or isolate: Species complex ; read-out: MIC50 ; value: 1 µg/mL
COc1c(N2CCNC(C)C2)c(F)cc2c(=O)c(C(=O)O)cn(C3CC3)c12 ; agent: Streptococcus pneumoniae ; strain or isolate: 15 strains ; read-out: MIC50 ; value: 0.39 µg/mL
Fc1cccc(Cn2cnc3c(Nc4cccc(F)c4)nc(C(F)(F)F)nc32)c1 ; agent: Rhinovirus ; strain or isolate: Serotype 58 ; cells: M-HELA ; read by: plaque count ; read-out: EC50 ; value: 4.2 µM
O=C(Nc1cc(C(F)(F)F)cc(C(F)(F)F)c1)NN(CC(O)CN1CCOCC1)C(=O)Nc1cc(C(F)(F)F)cc(C(F)(F)F)c1 ; agent: Escherichia coli ; strain or isolate: ES142 ; read-out: MIC ; value: >300 µM
Nc1nc2c(ncn2CCC(CO)CO)c(=O)[nH]1 ; agent: Varicella zoster virus ; strain or isolate: Oka CF1603-resistant ; cells: HEL ; read by: cytopathic effect ; read-out: EC50 ; value: ≥70.3 µM
Cc1cc(CCCOc2c(C)cc(-c3noc(C(F)(F)F)n3)cc2C)on1 ; agent: Rhinovirus ; strain or isolate: Isolate 19 ; cells: OHIO HELA-I ; read by: cytopathic effect / visual reading ; read-out: EC50 ; value: 0.11 µg/mL
O=C(Nc1ccc(NC(=S)Nc2cc(C(F)(F)F)cc(C(F)(F)F)c2)cc1)c1csnn1 ; agent: Rat cytomegalovirus ; cells: HFF ; read by: virus yield ; read-out: EC50 ; value: >20 µM
COC(=O)c1ccccc1C(=O)Nc1ccc(C(=O)NC(=O)c2ccccc2O)cc1 ; agent: Toxoplasma gondii ; cells: Human foreskin fibroblasts ; read-out: MIC50 ; value: >1 µM
CC(C)CS[C@H]1C[C@@H](n2cnc3c(N)ncnc32)[C@H](O)[C@@H]1O ; agent: Reovirus ; strain or isolate: TYPE 1 ; cells: HeLa ; read by: cytopathic effect ; read-out: EC50 ; value: >80 µg/mL
Nc1cnn([C@@H]2O[C@H](CO)[C@@H](O)[C@H]2O)c(=O)n1 ; agent: Adenovirus ; strain or isolate: TYPE 5 ; cells: HEP-2 ; read-out: inhibition ; tested at: 16 µg/mL ; value: 100%
CC(N)C12CC3CC(CC(C3)C1)C2 ; agent: Influenza A virus ; strain or isolate: Influenza A/Guizhou/54/89 (H3N2) ; cells: VERO ; read by: ELISA ; read-out: EC50 ; value: 0.012 µg/mL
Cc1c(NCCO)c(F)cc2c(=O)c(C(=O)O)cn(-c3cc(N)c(F)cc3F)c12 ; agent: Staphylococcus aureus ; strain or isolate: 27 isolates (methicillin-resistant) ; read-out: Mean MIC ; value: 0.027 µg/mL
Nc1ccc(Cn2cnc3c(Nc4cccc(F)c4)nc(C(F)(F)F)nc32)cc1 ; agent: Rhinovirus ; strain or isolate: Serotype 1B ; cells: M-HELA ; read by: plaque count ; read-out: EC50 ; value: 0.4 µM
CCC(=O)C(CCCCCCOc1ccc(OC)cc1Cl)C(=O)CC ; agent: Equine herpesvirus 4 ; read by: virus yield ; read-out: EC50 ; value: <100 µg/mL
COc1cc(Cc2cnc(-n3c(C)nc4ccc(Br)cc4c3=O)nc2N)cc(OC)c1OC ; agent: Punta Toro virus ; cells: E6SM ; read by: cytopathic effect ; read-out: EC50 ; value: >80 µg/mL
Nc1ccn(C[C@@H](CO)OCP(=O)(O)O)c(=O)n1 ; agent: Varicella zoster virus ; strain or isolate: Oka acyclovir-resistant ; cells: HEL ; read by: cytopathic effect ; read-out: EC50 ; value: 0.09 µM
CCc1nc(-n2c(C)nc3ccc(Br)cc3c2=O)nc(N)c1-c1ccc(Cl)cc1 ; agent: Punta Toro virus ; cells: E6SM ; read by: cytopathic effect ; read-out: EC50 ; value: >80 µg/mL
CCOC(=O)c1ccc(N2CCN(c3ccc(C(=O)OCC)cc3)CC2)cc1 ; agent: Pneumocystis carinii ; read by: ATP ; read-out: EC50 ; value: >100 µg/mL
Cn1cc(C(=O)NCc2ccc(Cl)cc2)c(=O)c2cc(CN3CCOCC3)ccc21 ; agent: Varicella zoster virus ; strain or isolate: MO varicella isolate ; cells: HFF ; read by: plaque count ; read-out: inhibition ; tested at: 3.6 µM ; value: 90%
CO/N=C1\CN(c2nc3c(cc2F)c(=O)c(C(=O)O)cn3C2CC2)CC1CN ; agent: Streptococcus pneumoniae ; strain or isolate: 94 isolates ciprofloxacin-susceptible ; read-out: MIC90 ; value: 0.031 µg/mL
CN1CCN(C)C1c1ccc(N2CCN(c3ccc(C4N(C)CCN4C)cc3)CC2)cc1 ; agent: Pneumocystis carinii ; read by: ATP ; read-out: EC50 ; value: >100 µg/mL
O=C(O)P(=O)(O)O ; agent: Varicella zoster virus ; strain or isolate: Oka BVDU-resistant ; cells: HEL ; read by: cytopathic effect ; read-out: EC50 ; value: 49.3 µM
Cc1nc2ccc(CN(C)c3ccc(C(=O)N[C@@H](CCC(=O)O)C(=O)O)s3)cc2c(=O)[nH]1 ; agent: Mouse cytomegalovirus ; read by: virus yield ; read-out: inhibition ; tested at: 0.01 µM ; value: 90%

7 of the rows above, restated:

SMILES,agent,strain or isolate,cells,read by,read-out,tested at,value
O=C(O)P(=O)(O)O,Varicella zoster virus,Oka BVDU-resistant,HEL,cytopathic effect,EC50,,49.3 µM
CCC(CC)[C@H](NC(C)=O)[C@@H]1[C@H](O)[C@@H](C(=O)O)C[C@H]1N=C(N)N,Influenza B virus,Memphis/3/89,MDCK,plaque count,EC50,,0.0084 µM
CC(N)C12CC3CC(CC(C3)C1)C2,Influenza A virus,Influenza A/Guizhou/54/89 (H3N2),VERO,ELISA,EC50,,0.012 µg/mL
NNC(=O)c1ccc(N2CCN(c3ccc(C(=O)NN)cc3)CC2)cc1,Pneumocystis carinii,,,ATP,EC50,,6.48 µg/mL
CCCCCCCCCCCCCCCCCCCCCCOCC(C)(COCCCCCCCCCCCCCCCCCCCCCC)CO[C@]1(C(=O)O)C[C@H](OS(=O)(=O)O)[C@@H](NC(C)=O)[C@H]([C@H](OS(=O)(=O)O)[C@@H](COS(=O)(=O)O)OS(=O)(=O)O)O1,Rotavirus,MO (serotype 3),MA-104,plaque count,EC50,,2.2 µg/mL
COc1cc(OC)c(NC(=S)Nc2ccc(NC(=O)c3ccco3)cc2)cc1Cl,Simian cytomegalovirus,Colburn,HFF,,EC50,,>20 µM
Cc1ccc(-n2cc(C(C)(C)O)nn2)cc1C,Candida parapsilosis,URM 4970,,broth dilution,inhibition,2048 µg/mL,0%